Measurements from patent publication US20210403443A1, “SUBSTITUTED 1,2,4-OXADIAZOLE, ITS APPLICATION AND A PHARMACEUTICAL PREPARATION COMPRISING IT” (SVENOX PHARMACEUTICALS LLC, priority 2018, published 2021).

Assays:
Type in all cases: cell-based
[1] = test system: Mycobacterium tuberculosis CNCTC My 331/88; experiment: MIC micromethod in Sula's medium, collection strain M. tuberculosis
[2] = test system: M. tuberculosis MDR strain Praha 131; experiment: MIC micromethod in Sula's medium, multiresistant strain Praha 131; details: strain Praha 131, after 14 days of incubation
[3] = test system: M. tuberculosis MDR strain Praha 4; experiment: MIC micromethod in Sula's medium, multiresistant strain Praha 4; details: strain Praha 4, after 14 days of incubation
[4] = test system: M. tuberculosis MDR strain 9449/2007; experiment: MIC micromethod in Sula's medium, multiresistant strain 9449/2007; details: strain 9449/2007, after 14 days of incubation
[5] = test system: M. tuberculosis MDR strain 7357/1998; experiment: MIC micromethod in Sula's medium, multiresistant strain 7357/1998; details: strain 7357/1998, after 14 days of incubation
[6] = test system: M. tuberculosis MDR strain Praha 1; experiment: MIC micromethod in Sula's medium, multiresistant strain Praha 1; details: strain Praha 1, after 14 days of incubation
[7] = test system: M. tuberculosis MDR strain 8666/2010; experiment: MIC micromethod in Sula's medium, multiresistant strain 8666/2010; details: strain 8666/2010, after 14 days of incubation
[8] = test system: M. kansasii CNCTC My 235/80; experiment: MIC micromethod in Sula's medium, atypical strain M. kansasii
[9] = test system: M. tuberculosis MDR strain 234/2005; experiment: MIC micromethod in Sula's medium, multiresistant strain 234/2005; details: strain 234/2005, after 14 days of incubation

For `O=[N+]([O-])c1ccc(-c2noc(SCc3cc([N+](=O)[O-])cc([N+](=O)[O-])c3)n2)cc1`, the Minimum inhibiting concentration ([1]; M. tuberculosis My 331/88, after 14 days of incubation) was 0.5 µM (≈ 0.202 µg/mL), the Minimum inhibiting concentration ([1]; M. tuberculosis My 331/88, after 21 days of incubation) was 1 µM (≈ 0.403 µg/mL) and the “Minimum inhibiting concentration of substances with general formula I” value [2] was 1 µM. For the same molecule, the “Minimum inhibiting concentration of substances with general formula I” value [3] was 0.5 µM, the “Minimum inhibiting concentration of substances with general formula I” value [4] was 0.5 µM and the “Minimum inhibiting concentration of substances with general formula I” value [5] was 1 µM. The “Minimum inhibiting concentration of substances with general formula I” value [6] was 1 µM, the “Minimum inhibiting concentration of substances with general formula I” value [7] was 0.5 µM and the Minimum inhibiting concentration ([8]; M. kansasii My 235/80, after 7 days of incubation) was 2 µM (≈ 0.807 µg/mL). For the same molecule, the Minimum inhibiting concentration ([8]; M. kansasii My 235/80, after 14 days of incubation) was 2 µM (≈ 0.807 µg/mL), the Minimum inhibiting concentration ([8]; M. kansasii My 235/80, after 21 days of incubation) was 4 µM (≈ 1.61 µg/mL) and the “Minimum inhibiting concentration of substances with general formula I” value [9] was 0.5 µM.

In brackets after ≈: the same amount, converted by molar mass.
